Compound potency records, mixed from different reports. Data source: NIAID ChemDB in PubChem.

Shared fields: enzyme or target tests; protein: CXCR4; endpoint: IC50

ICn is the concentration giving n% inhibition. Rows are shuffled and stem from different studies. Blank or dashed fields: not listed here. a–b is a range or a potency band.

compound | read by | value
NC[C@@H]1O[C@H](O[C@H]2[C@@H](O)[C@H](O[C@@H]3[C@@H](O)[C@H](N)C[C@H](N)[C@H]3O[C@H]3O[C@H](CO)[C@@H](O)[C@H](O)[C@H]3N)O[C@@H]2CO)[C@H](N)[C@@H](O)[C@@H]1O | flow cytometry | >10 µM
NC(N)=NCCC[C@@H]1NC(=O)[C@@H](Cc2ccc(F)cc2)NC(=O)[C@@H](CCCN=C(N)N)NC(=O)CNC(=O)[C@H](Cc2ccc3ccccc3c2)NC1=O | radiometric | 0.094 µM
CNC(C)[C@H]1O[C@H](O[C@@H]2[C@@H](O)[C@H](O[C@@H]3OC[C@@](C)(O)[C@@H](NC)[C@@H]3O)[C@@H](NC(=O)[C@@H](N)CCCN=C(N)N)C[C@H]2NC(=O)[C@@H](N)CCCN=C(N)N)[C@H](NC(=O)[C@@H](N)CCCN=C(N)N)[C@@H](O)[C@@H]1O | - | 7.2 µM
NC(N)=NCCC[C@H]1/C=C/[C@@H](Cc2ccc3ccccc3c2)C(=O)NCC(=O)N[C@H](Cc2ccc(O)cc2)C(=O)N[C@@H](CCCN=C(N)N)C(=O)N1 | radiometric | 31–100 µM
NC(N)=NCCC[C@H](N)C(=O)NC[C@@H]1OC(O[C@H]2[C@@H](O)[C@H](O[C@@H]3[C@@H](O)[C@H](NC(=O)[C@@H](N)CCCN=C(N)N)C[C@H](NC(=O)[C@@H](N)CCCN=C(N)N)[C@H]3O[C@H]3O[C@H](CNC(=O)[C@@H](N)CCCN=C(N)N)[C@@H](O)[C@H](O)[C@H]3NC(=O)[C@@H](N)CCCN=C(N)N)O[C@@H]2CO)[C@H](NC(=O)[C@@H](N)CCCN=C(N)N)[C@@H](O)[C@@H]1O | - | 1.3 µM
NC(N)=NCCC[C@@H]1NC(=O)CNC(=O)[C@H](Cc2ccc3ccccc3c2)NC(=O)[C@H](CCCN=C(N)N)NC(=O)[C@H](Cc2ccc(F)cc2)NC1=O | radiometric | 0.62 µM
NC(N)=NCCC[C@H](N)C(=O)NC[C@@H]1OC(O[C@H]2[C@@H](O)[C@H](O[C@@H]3[C@@H](O)[C@H](NC(=O)[C@@H](N)CCCN=C(N)N)C[C@H](NC(=O)[C@@H](N)CCCN=C(N)N)[C@H]3O[C@H]3O[C@H](CO)[C@@H](O)[C@H](O)[C@H]3NC(=O)[C@@H](N)CCCN=C(N)N)O[C@@H]2CO)[C@H](NC(=O)[C@@H](N)CCCN=C(N)N)[C@@H](O)[C@@H]1O | flow cytometry | <10 µM
NC(N)=NCCC[C@@H]1NC(=O)[C@H](Cc2ccc(F)cc2)NC(=O)[C@@H](Cc2ccc(O)cc2)NC(=O)CNC(=O)[C@H](Cc2ccc3ccccc3c2)NC1=O | radiometric | 0.057 µM
NC[C@H]1O[C@H](O[C@H]2[C@H](O)[C@@H](O)[C@H](N)C[C@@H]2N)[C@H](N)[C@@H](O)[C@@H]1O | flow cytometry | >10 µM
NC(N)=NCCC[C@@H]1NC(=O)[C@@H](Cc2ccc(O)cc2)NC(=O)CNC(=O)[C@H](Cc2ccc3ccccc3c2)NC(=O)[C@@H]2C[C@H](N=C(N)N)CN2C1=O | radiometric | >1 µM
NC(N)=NCCC[C@H](N)C(=O)NC[C@@H]1O[C@H](O[C@H]2[C@@H](O)[C@H](O[C@@H]3[C@@H](O)[C@H](N)C[C@H](N)[C@H]3O[C@H]3O[C@H](CO)[C@@H](O)[C@H](O)[C@H]3N)O[C@@H]2CO)[C@H](N)[C@@H](O)[C@@H]1O | flow cytometry | >10 µM
NC(N)=NCCC[C@@H]1NC(=O)[C@H](CCCN=C(N)N)NC(=O)[C@@H](Cc2ccc(O)cc2)NC(=O)CNC(=O)[C@H](Cc2c[nH]c3ccccc23)NC1=O | radiometric | 0.013 µM
NC(N)=NCCC[C@H](N)C(=O)NC[C@@H]1OC(O[C@H]2[C@@H](O)[C@H](O[C@@H]3[C@@H](O)[C@H](NC(=O)[C@@H](N)CCCN=C(N)N)C[C@H](NC(=O)[C@@H](N)CCCN=C(N)N)[C@H]3O[C@H]3O[C@H](CNC(=O)[C@@H](N)CCCN=C(N)N)[C@@H](O)[C@H](O)[C@H]3NC(=O)[C@@H](N)CCCN=C(N)N)O[C@@H]2CO)[C@H](NC(=O)[C@@H](N)CCCN=C(N)N)[C@@H](O)[C@@H]1O | flow cytometry | <10 µM
NC(N)=NCCC[C@@H]1NC(=O)[C@H](CCCN=C(N)N)NC(=O)[C@@H](Cc2ccc(O)cc2)NC(=O)CNC(=O)[C@@H](Cc2nc3ccccc3s2)NC1=O | radiometric | 0.26 µM
NC(N)=NCCC[C@@H]1NC(=O)CNC(=O)[C@H](Cc2ccc3ccccc3c2)NC(=O)[C@H](CCCN=C(N)N)NC(=O)[C@@H](Cc2ccc(F)cc2)NC1=O | radiometric | 0.035 µM

Repeating the first 2 entries:

compound	read by	value
NC[C@@H]1O[C@H](O[C@H]2[C@@H](O)[C@H](O[C@@H]3[C@@H](O)[C@H](N)C[C@H](N)[C@H]3O[C@H]3O[C@H](CO)[C@@H](O)[C@H](O)[C@H]3N)O[C@@H]2CO)[C@H](N)[C@@H](O)[C@@H]1O	flow cytometry	>10 µM
NC(N)=NCCC[C@@H]1NC(=O)[C@@H](Cc2ccc(F)cc2)NC(=O)[C@@H](CCCN=C(N)N)NC(=O)CNC(=O)[C@H](Cc2ccc3ccccc3c2)NC1=O	radiometric	0.094 µM